Anti-infective test results gathered from many reports (values: NIAID ChemDB through PubChem).

All rows: enzyme or target tests; organism: Pneumocystis carinii; protein: Dihydrofolate reductase; read-out: IC50

a–b is a range or a potency band. ICn is the concentration giving n% inhibition. Conditions beyond the fields shown may differ between rows.

compound	result
COc1cc(CN2Cc3cnc4nc(N)nc(N)c4c3C2)cc(OC)c1OC	12.6 µM
Nc1nc(N)c2c(ccc3c2ccn3Cc2ccccc2)n1	>3.1 µM
Cc1cc2c(cc1C)-c1c(N)nc(N)nc1CC2	0.59 µM
Nc1nc(N)c2c(ccc3ccc(Cl)cc32)n1	3.5–4.1 µM
Nc1nc(N)c(-c2ccc(Cl)c(Cl)c2)c(COc2ccccc2)n1	13.5 µM
Nc1nc(N)c2cc(C(=O)O)ccc2n1	>32 µM
CCc1nc(N)nc(N)c1-c1ccc(Cc2ccccc2)c([N+](=O)[O-])c1	1.03 µM
Nc1nc(N)c2c(ccc3cc(Cl)c(Cl)cc32)n1	0.73 µM
Nc1nc(N)c2nc(CN3c4ccccc4CCc4ccccc43)cnc2n1	1.4 µM
COc1cc(C2Cc3cnc4nc(N)nc(N)c4c3C2)cc(OC)c1OC	12.6 µM
CN(Cc1cc2c(N)nc(N)nc2o1)c1ccc(C(=O)NC(CCCC(O)O)C(O)O)cc1	0.035 µM
Nc1nc(N)c2c(ccc3c2ccn3Cc2ccc(Cl)cc2Cl)n1	0.006 µM
Cc1cnc2nc(N)nc(N)c2n1	>20 µM
COc1cccc2c1C(OC)CN2Cc1cnc2nc(N)nc(N)c2c1C	0.41 µM
Nc1nc(N)c2c(Cl)cccc2n1	0.28–3.6 µM
COc1cc2c(cc1OC)-c1c(N)nc(N)nc1C2	>58 µM
CCc1nc(N)nc(N)c1-c1ccc(Cl)c([N+](=O)[O-])c1	0.19–10.6 µM
Nc1nc(N)c2c(n1)CCc1cc(Cl)ccc1-2	5.8 µM
Nc1nc(N)c2cc(CNc3ccc(C(=O)NC(CCC(=O)O)C(=O)O)c4ccccc34)cnc2n1	0.00053 µM
CN(Cc1cnc2nc(N)nc(N)c2n1)c1ccc(C(=O)N[C@@H](CCC(=O)N[C@@H](CCC(=O)N[C@@H](CCC(=O)O)C(=O)O)C(=O)O)C(=O)O)cc1	0.0002 µM
Nc1nc(N)c2c(n1)Cc1cc(Cl)c(Cl)cc1-2	23 µM

Repeating the first 2 entries:

compound,result
COc1cc(CN2Cc3cnc4nc(N)nc(N)c4c3C2)cc(OC)c1OC,12.6 µM
Nc1nc(N)c2c(ccc3c2ccn3Cc2ccccc2)n1,>3.1 µM